## PSTVd stem 15 mutant pool in Nicotiana benthamiana

Values reported by Wu et al. 2024 (doi:10.1371/journal.ppat.1012142).

The pool varies stem 15 of the PSTVd intermediate strain in the pattern CUGGAGCGAUNGNNUNNG; wild type is CUGGAGCGAUCGCUUCGG (upper and lower strand joined, each 5' to 3', the first 9 letters being the upper strand).

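A pool of all variants was put on leaves of three Nicotiana benthamiana plants. Samples came from the inoculated region at 5 days, the leaf margin at 10 and upper systemic leaves at 12.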

Values are reads per thousand in the sample; higher means more abundant, 0 means not found.
Each site shows the three plants.
"Pool" is the share in the plasmid pool used as inoculum, on the same scale.
The inoculated region was read from the minus strand, the other sites from the plus strand.
The authors trace changes outside the varied positions to PCR and sequencing errors or to mutation in the plant; presence does not show that a variant is infectious alone.
For reference, wild type rose from 10.2 per thousand in the pool to 285, 367, 312 (inoculated region), 785, 865, 782 (leaf margin) and 854, 898, 915 (systemic leaves).
With 36,693-63,082 reads a sample, very low values are single reads.

sequence	pool	inoculated region	leaf margin	systemic leaves
CUGGAGCGAUGGACUUCG	0.808	0.294 / 0.272 / 0.298	0.0414 / 0.0545 / 0	0 / 0 / 0
CUGGAGCGAUGGACUUGG	0.808	0.274 / 0.188 / 0.261	0.0827 / 0 / 0.0317	0 / 0 / 0
CUGGAGCGAUGGACUUUG	1.10	0.274 / 1.11 / 0.372	0 / 0.0273 / 0.0159	0 / 0 / 0
CUGGAGCGAUGGAGUAAG	1.00	0.215 / 0.230 / 0.335	0.0414 / 0.0273 / 0	0 / 0 / 0
CUGGAGCGAUGGAGUACG	0.840	0.333 / 0.293 / 0.223	0.0414 / 0.0273 / 0.0317	0 / 0 / 0
CUGGAGCGAUGGAGUAGG	0.824	0.196 / 0.314 / 0.391	0.103 / 0 / 0.0317	0 / 0 / 0
CUGGAGCGAUGGAGUAUG	0.743	0.274 / 0.188 / 0.279	0.103 / 0.0273 / 0.0159	0 / 0 / 0
CUGGAGCGAUGGAGUCAG	0.905	0.313 / 0.293 / 0.261	0.0620 / 0.109 / 0.0476	0 / 0 / 0
CUGGAGCGAUGGAGUCCG	1.42	1.31 / 0.984 / 1.32	0.0414 / 0.0273 / 0.0634	0 / 0.0222 / 0.0199
CUGGAGCGAUGGAGUCGG	0.808	0.157 / 0.314 / 0.186	0.0827 / 0 / 0.0476	0 / 0 / 0
CUGGAGCGAUGGAGUCUG	0.873	0.411 / 0.251 / 0.316	0.0620 / 0.0273 / 0.0159	0 / 0 / 0
CUGGAGCGAUGGAGUGAG	0.776	0.235 / 0.188 / 0.391	0 / 0 / 0	0 / 0 / 0
CUGGAGCGAUGGAGUGCG	0.873	0.254 / 0.314 / 0.279	0.0207 / 0.0273 / 0.0159	0 / 0 / 0
CUGGAGCGAUGGAGUGGG	0.954	0.313 / 0.272 / 0.409	0.0414 / 0.0545 / 0.0159	0 / 0 / 0
CUGGAGCGAUGGAGUGUG	0.824	0.313 / 0.230 / 0.335	0.0207 / 0.0273 / 0.0159	0 / 0 / 0
CUGGAGCGAUGGAGUUAG	1.07	0.430 / 0.984 / 0.298	0.124 / 0.0273 / 0.0317	0 / 0 / 0
CUGGAGCGAUGGAGUUCG	0.970	0.313 / 0.356 / 0.205	0.165 / 0 / 0.0159	0 / 0 / 0
CUGGAGCGAUGGAGUUGG	0.711	0.274 / 0.335 / 0.223	0.0620 / 0 / 0.0159	0 / 0 / 0
CUGGAGCGAUGGAGUUUG	0.954	0.196 / 0.230 / 0.279	0.0827 / 0.0818 / 0.0317	0 / 0 / 0
CUGGAGCGAUGGAUUAAG	0.711	0.333 / 0.147 / 0.335	0.0414 / 0 / 0.0159	0 / 0 / 0
CUGGAGCGAUGGAUUACG	1.21	0.646 / 0.754 / 0.931	0.103 / 0.0273 / 0.0317	0 / 0.0222 / 0
CUGGAGCGAUGGAUUAGG	0.873	0.215 / 0.168 / 0.354	0.0414 / 0 / 0.0159	0 / 0 / 0
CUGGAGCGAUGGAUUAUG	1.34	0.489 / 0.398 / 0.484	0.103 / 0.0545 / 0.0476	0 / 0 / 0
CUGGAGCGAUGGAUUCAG	0.840	0.254 / 0.209 / 0.186	0.0414 / 0.0545 / 0	0 / 0 / 0
CUGGAGCGAUGGAUUCCG	0.889	0.352 / 0.314 / 0.242	0 / 0.0273 / 0.0159	0 / 0 / 0
CUGGAGCGAUGGAUUCGG	0.776	0.489 / 0.314 / 0.372	0.124 / 0 / 0	0.0198 / 0 / 0
CUGGAGCGAUGGAUUCUG	0.970	0.254 / 0.230 / 0.316	0 / 0 / 0.0159	0 / 0 / 0
CUGGAGCGAUGGAUUGAG	0.840	0.157 / 0.356 / 0.409	0.0414 / 0.0545 / 0	0 / 0 / 0
CUGGAGCGAUGGAUUGCG	0.792	0.372 / 0.168 / 0.391	0.124 / 0 / 0	0 / 0 / 0
CUGGAGCGAUGGAUUGGG	1.02	0.294 / 0.377 / 0.354	0.0827 / 0.0273 / 0.0159	0 / 0 / 0
CUGGAGCGAUGGAUUGUG	0.743	0.196 / 0.168 / 0.223	0 / 0 / 0.0317	0 / 0 / 0
CUGGAGCGAUGGAUUUAG	0.986	0.333 / 0.293 / 0.261	0.0414 / 0.136 / 0	0 / 0 / 0
CUGGAGCGAUGGAUUUCG	0.792	0.274 / 0.230 / 0.335	0.0827 / 0.0818 / 0	0 / 0 / 0
CUGGAGCGAUGGAUUUGG	0.921	0.294 / 0.272 / 0.279	0.0207 / 0.0818 / 0.0159	0 / 0 / 0
CUGGAGCGAUGGAUUUUG	1.47	0.802 / 0.565 / 0.968	0.0620 / 0 / 0.0159	0 / 0 / 0
CUGGAGCGAUGGCAUAAG	0.954	0.196 / 0.335 / 0.391	0.0620 / 0.109 / 0.0317	0 / 0 / 0
CUGGAGCGAUGGCAUACG	1.00	0.313 / 0.356 / 0.354	0.0207 / 0.0818 / 0.0159	0 / 0 / 0
CUGGAGCGAUGGCAUAGG	1.07	0.294 / 0.293 / 0.335	0.103 / 0.0273 / 0	0 / 0 / 0
CUGGAGCGAUGGCAUAUG	1.41	0.646 / 0.859 / 0.614	0.0414 / 0.245 / 0.0159	0 / 0 / 0
CUGGAGCGAUGGCAUCAG	0.970	0.352 / 0.230 / 0.261	0.0827 / 0.0545 / 0.0159	0 / 0 / 0
CUGGAGCGAUGGCAUCCG	0.646	0.176 / 0.251 / 0.223	0.0414 / 0.0545 / 0.0317	0 / 0 / 0
CUGGAGCGAUGGCAUCGG	1.15	0.294 / 0.168 / 0.391	0 / 0.0273 / 0	0 / 0 / 0
CUGGAGCGAUGGCAUCUG	0.760	0.274 / 0.251 / 0.335	0.0414 / 0 / 0	0 / 0 / 0
CUGGAGCGAUGGCAUGAG	0.840	0.254 / 0.209 / 0.298	0.124 / 0.0545 / 0.0159	0 / 0 / 0
CUGGAGCGAUGGCAUGCG	1.10	0.254 / 0.147 / 0.242	0 / 0.0273 / 0	0 / 0 / 0
CUGGAGCGAUGGCAUGGG	0.582	0.254 / 0.147 / 0.335	0.103 / 0 / 0	0 / 0 / 0
CUGGAGCGAUGGCAUGUG	0.937	0.215 / 0.209 / 0.354	0.0620 / 0.0545 / 0.0159	0 / 0 / 0

6 of these entries, quoted again:

For CUGGAGCGAUGGCAUCUG (pool 0.760) the result was inoculated region 0.274 / 0.251 / 0.335; leaf margin 0.0414 / 0 / 0; systemic leaves 0 / 0 / 0.
For CUGGAGCGAUGGAGUAUG (pool 0.743) the result was inoculated region 0.274 / 0.188 / 0.279; leaf margin 0.103 / 0.0273 / 0.0159; systemic leaves 0 / 0 / 0.
For CUGGAGCGAUGGAUUUUG (pool 1.47) the result was inoculated region 0.802 / 0.565 / 0.968; leaf margin 0.0620 / 0 / 0.0159; systemic leaves 0 / 0 / 0.
For CUGGAGCGAUGGACUUCG (pool 0.808) the result was inoculated region 0.294 / 0.272 / 0.298; leaf margin 0.0414 / 0.0545 / 0; systemic leaves 0 / 0 / 0.
For CUGGAGCGAUGGCAUCGG (pool 1.15) the result was inoculated region 0.294 / 0.168 / 0.391; leaf margin 0 / 0.0273 / 0; systemic leaves 0 / 0 / 0.
For CUGGAGCGAUGGCAUACG (pool 1.00) the result was inoculated region 0.313 / 0.356 / 0.354; leaf margin 0.0207 / 0.0818 / 0.0159; systemic leaves 0 / 0 / 0.